Compound potency records, mixed from different reports. Data source: NIAID ChemDB in PubChem.

Shared fields: toxicity to cultured cells; cell line: PBMC; endpoint: CC50

CCn is the concentration with n% toxicity to the cells.

O=C(CN1c2c(-c3ccccc3)n[nH]c2-c2ccccc2S1(=O)=O)N/N=C/c1ccc(Br)cc1 ; value: 13 µM
O=C(NCCc1ccc2c(c1)NCCC2)NCc1ccc(Cl)c(Cl)c1 ; value: 50 µM
COc1ccc(/C=N/NC(=O)CN2c3c(-c4ccccc4)n[nH]c3-c3ccccc3S2(=O)=O)cc1 ; value: 76.3 µM
COc1cc2oc3c(c(=O)c2c(O)c1/C=C/C(C)C)C(C=C(C)C)Oc1cc(O)ccc1-3 ; value: 15.7 µM
O=C(CN1c2c(-c3ccccc3)n[nH]c2-c2ccccc2S1(=O)=O)N/N=C/c1ccccc1F ; value: 20.7 µM
NC(=O)CCNC(=O)c1ccccc1SCc1ccc(OP2(=O)OCc3ccccc3O2)cc1 ; read by: XTT ; value: >50 µM
C=CCNc1nc(N)nc2c1ncn2C/C(C)=C/CP(=O)(OCOC(=O)C(C)(C)C)OCOC(=O)C(C)(C)C ; read by: absorbance ; value: 24.1 µM
Nc1nc(F)nc2c1ncn2[C@@H]1O[C@@H](CO)C=C1F ; value: >100 µM
CCn1cc(C(=O)O)c(=O)c2cc(F)c(N3CCN(c4ccccc4OC)CC3)c(OC(F)F)c21 ; value: 22.9 µM
O=c1[nH]cnc2c1ncn2[C@@H]1O[C@@H](CO)C=C1F ; value: >100 µM
C#Cc1cn([C@H]2C[C@H](O)[C@@H](CO)O2)c(=O)[nH]c1=O ; value: >100 µM
CC(=O)Nc1cc2c(cc1OC(F)(F)F)CCN(c1nn3c(C)nnc3c3ccccc13)C2 ; value: 2.55 µM
COc1cc2oc(-c3ccc(O)cc3O)c(CC=C(C)C)c(=O)c2c(O)c1CC=C(C)C ; value: 41.7 µM
CC(=O)SCCOP(=O)(OCCSC(C)=O)OC[C@@H]1C=C[C@H](n2cc(C)c(=O)[nH]c2=O)O1 ; value: 22 µM
O=C(NCCc1ccc2c(n1)NCCC2)Nc1cccc(-c2ccc(Cl)cc2)n1 ; value: 50 µM
O=c1cc(-c2ccc(O)cc2O)oc2cc(O)cc(O)c12 ; value: 26.5 µM
O=C(NCc1ccc2c(n1)NCCC2)Nc1ccc(Cl)c(Cl)c1 ; value: 50 µM
O=C(O)c1cn(-c2ccc(Cn3cncn3)cc2)c2c(OC(F)F)c(N3CC=C(c4ccccc4)CC3)c(F)cc2c1=O ; value: 1.5 µM
O=C(CN1c2c(-c3ccccc3)n[nH]c2-c2ccccc2S1(=O)=O)N/N=C/c1ccccc1[N+](=O)[O-] ; value: 47.8 µM
CCCCCCCCCOC(=O)c1cc(O)c(O)c(O)c1 ; read by: MTT ; value: 2120 µM
COc1cc2c(cc1OC)CN(c1nn3c(C(F)F)nnc3c3ccccc13)CC2 ; value: 3.61 µM
COc1ncc(I)c(OC)n1 ; value: >100 µM
COC(=O)c1cc(O)c(O)c(O)c1 ; read by: MTT ; value: 1230 µM
CC(=O)[O-].CC(=O)[O-].CCC1=C(CC)C2/C=C3\N=C(C=Nc4cc(OCCOCCOCCOC)c(OCCOCCOCCOC)cc4N=C/C=c4\[n-]/c(c(CCCO)c4C)=C\C1=N2)C(C)=C3CCCO.[Gd+3] ; read by: propidium iodide ; value: ~400 µM
Cc1cn([C@H]2O[C@@H](CO)C=C2F)c(=O)[nH]c1=O ; value: >100 µM
Nc1ccn([C@H]2O[C@@H](CO)C=C2F)c(=O)n1 ; value: >100 µM
FC(F)c1nnc2c3ccccc3c(N3CCc4ccccc4C3)nn12 ; value: 20.6 µM
O=C(CN1c2c(-c3ccccc3)n[nH]c2-c2ccccc2S1(=O)=O)N/N=C/c1ccc(Cl)cc1Cl ; value: 11.1 µM
O=S(=O)(NCCc1ccc2c(n1)NCCC2)c1cccc(C(F)(F)F)c1 ; value: 50 µM
Nc1ccn([C@@H]2C=C(F)[C@H](CO)O2)c(=O)n1 ; value: 86.9 µM
Nc1nc(Cl)c2ncn([C@@H]3O[C@@H](CO)C=C3F)c2n1 ; value: 26.6 µM
CCCCC1=NC2CC(/C=C/C(=O)NO)=CC=C2N1CCN(CC)CC ; read by: ATP / luminescence ; value: >50 µM
CN(C)CCCNC(=O)CCNC(=O)c1cc(NC(=O)c2nc(NC(=O)CCNC(=O)c3cc(NC(=O)c4nc(NC(=O)CCCNC(=O)c5cc(NC(=O)c6nc(NC(=O)CCNC(=O)c7cc(NC(=O)c8nccn8C)cn7C)cn6C)cn5C)cn4C)cn3C)cn2C)cn1C ; value: >1 µM
CCCCCCCCOC(=O)c1cc(O)c(O)c(O)c1 ; read by: MTT ; value: 1835 µM
Nc1ncnc2c1ncn2[C@@H]1O[C@@H](CO)C=C1F ; value: >100 µM
COc1ccc(/C=N/NC(=O)CN2c3c(-c4ccccc4)n[nH]c3-c3ccccc3S2(=O)=O)c(OC)c1 ; value: 74.4 µM
CCC(C)C(=O)c1c(O)c(C)c(OC)c(Cc2c(O)c(C)c(O)c3c2OC(C)(C)CC3=O)c1O ; value: 1.3 µM
Nc1nc(F)nc2c1ncn2[C@H]1O[C@@H](CO)C=C1F ; value: 25.8 µM
C=C(C)[C@@H]1CC[C@]2(C(=O)NCCCCCCCC(=O)N[C@@H](CC(C)C)[C@@H](O)CC(=O)O)CC[C@]3(C)[C@H](CC[C@@H]4[C@@]5(C)CC[C@H](O)C(C)(C)[C@@H]5CC[C@]43C)[C@@H]12 ; value: >3 µM
Cc1ccc(NC(=O)CN2CCN(Cc3nc(-c4ccc(F)cc4)no3)CC2)cc1 ; read by: absorbance ; value: >100 µM
FC(F)(F)c1nnc2c3ccccc3c(N3CCc4ccccc4C3)nn12 ; value: >100 µM
NC(=O)c1cn([C@@H]2CS[C@H](CO)O2)cn1 ; value: >100 µM
CCCCCCCCCCCCCCCCOC(=O)c1cc(O)c(O)c(O)c1 ; read by: MTT ; value: 1720 µM
Cc1ccn(-c2cccc(CCNC(=O)NCc3ccc(Cl)c(Cl)c3)n2)n1 ; value: 50 µM
C#Cc1cnc(OC(=O)c2ccccc2)nc1OC(=O)c1ccccc1 ; value: >100 µM
CCCCCOC(=O)c1cc(O)c(O)c(O)c1 ; read by: MTT ; value: 1525 µM
CC(C)=CCc1c(O)cc2oc(-c3ccc(O)cc3O)c(CC=C(C)C)c(=O)c2c1O ; value: 19.1 µM
CCCCOC(=O)c1cc(O)c(O)c(O)c1 ; read by: MTT ; value: 1460 µM
O=C(CN1c2c(-c3ccccc3)n[nH]c2-c2ccccc2S1(=O)=O)N/N=C/c1ccc([N+](=O)[O-])cc1 ; value: ≥100 µM
CCCCOc1nc(N)c2c(n1)N(Cc1cccc(CN3CCCC3)c1)CC(=O)N2 ; read by: luminescence ; value: >10 µM
CCCCCCCCCCCCOC(=O)c1cc(O)c(O)c(O)c1 ; read by: MTT ; value: 2200 µM
O=C(CN1c2c(-c3ccccc3)n[nH]c2-c2ccccc2S1(=O)=O)N/N=C/c1c(Cl)cccc1Cl ; value: 12.9 µM
CCCOC(=O)c1cc(O)c(O)c(O)c1 ; read by: MTT ; value: 1800 µM
COc1ccc2c(c1)CN(c1nn3c(-c4cccs4)nnc3c3ccccc13)CC2 ; value: >100 µM
COc1ccccc1N1CCN(c2c(F)cc3c(=O)c(C(=O)O)cn(C)c3c2CN(C)C)CC1 ; value: >20 µM
O=C(NCCCc1ccc2c(n1)NCCC2)Nc1ccc(F)c(C(F)(F)F)c1 ; value: 17.6 µM
NC(=O)c1cnn([C@@H]2C=C(CO)[C@@H](O)[C@H]2O)c1 ; value: >100 µM

The first 8 rows once more:

structure	read by	value
O=C(CN1c2c(-c3ccccc3)n[nH]c2-c2ccccc2S1(=O)=O)N/N=C/c1ccc(Br)cc1		13 µM
O=C(NCCc1ccc2c(c1)NCCC2)NCc1ccc(Cl)c(Cl)c1		50 µM
COc1ccc(/C=N/NC(=O)CN2c3c(-c4ccccc4)n[nH]c3-c3ccccc3S2(=O)=O)cc1		76.3 µM
COc1cc2oc3c(c(=O)c2c(O)c1/C=C/C(C)C)C(C=C(C)C)Oc1cc(O)ccc1-3		15.7 µM
O=C(CN1c2c(-c3ccccc3)n[nH]c2-c2ccccc2S1(=O)=O)N/N=C/c1ccccc1F		20.7 µM
NC(=O)CCNC(=O)c1ccccc1SCc1ccc(OP2(=O)OCc3ccccc3O2)cc1	XTT	>50 µM
C=CCNc1nc(N)nc2c1ncn2C/C(C)=C/CP(=O)(OCOC(=O)C(C)(C)C)OCOC(=O)C(C)(C)C	absorbance	24.1 µM
Nc1nc(F)nc2c1ncn2[C@@H]1O[C@@H](CO)C=C1F		>100 µM

Blank or dashed fields: not listed here. Lines come from different laboratories, so protocols vary.